Anti-infective test results gathered from many reports (values: NIAID ChemDB through PubChem).

All rows: tests in culture; organism: HIV-1; cells: H9; read-out: inhibition

Inhibition is in % at the dose shown (toxicity tests: loss of growth or viability).

smiles,strain or isolate,read by,setting,tested at,value
CCCCCCCCCCCCCCCCOCC(Cl)COP(=O)([O-])OCC[N+](C)(C)C,IIIB,RT activity,-,10 µM,61%
NC(N)=NCCC[C@@H](C=O)NC(=O)CNC(=O)[C@@H]1CCCN1,IIIB,p24,-,25 µg/mL,0%
O=C1OC(C2OC(=O)c3cc(O)c(O)c(O)c3-c3c(O)c(O)c4oc(=O)c5c(c(O)c(O)c6oc(=O)c3c4c65)-c3c(cc(O)c(O)c3O)C(=O)OCC2O)C2OC(=O)c3c(c(O)c(O)c(O)c3C2O)-c2c1cc(O)c(O)c2O,IIIB,p24,-,0.2 µg/mL,0%
C[C@@H]1[C@H](O)[C@@H](C)/C=C/C=C/CC/C=C/C=C/C=C/C=C/C(O[C@H]2O[C@H](C)[C@@H](O)[C@H](N)[C@@H]2O)CC2O[C@](O)(CC(O)C(O)CCC(O)CC(O)CC(O)CC(=O)O[C@H]1C)CC(O)C2C(=O)O,-,p24 / ELISA,-,10 µg/mL,88%
NCC(=O)N1CCC[C@H]1C=O,IIIB,syncytia,-,250 µg/mL,75%
COc1cc(C[C@@](O)(C(N)=O)[C@H](CO)Cc2ccc(OC)c(OC)c2)ccc1O,IIIB,syncytia,-,1.8 µM,93%
NC(N)=NCCC[C@H](NC(=O)[C@@H](N)Cc1ccc(O)cc1)C(=O)NCC(=O)N1CCC[C@H]1C(=O)NCC=O,IIIB,p24,-,25 µg/mL,17%
CCCC(=O)O[C@H]1CN2CC[C@H](O)[C@@H]2[C@@H](O)[C@@H]1O,RF,-,-,40 µM,99%
Nc1nc(=O)n([C@H]2C[C@H](O)[C@@H](CO)O2)cc1C1CC1,IIIB,RT activity,-,10 µg/mL,1%
COc1cc([C@H]2OC[C@H]3[C@@H]2CO[C@@H]3c2ccc3c(c2)OCO3)cc(OC)c1OC,IIIB,p24,-,10.6 µM,85%
Cc1cn([C@H]2C[C@H](N=[N+]=[N-])[C@@H](CO)O2)c(=O)[nH]c1=O,-,p24 / ELISA,-,50 µg/mL,90%
COc1cc(C[C@@]2(O)C(=O)OC[C@@H]2Cc2ccc(OC)c(OC)c2)ccc1O,IIIB,RT activity,-,0.52 µM,57%
Cc1ccc(C(=O)OC[C@H]2O[C@@H](n3cc(-c4ccncc4)c(N)nc3=O)C[C@@H]2OC(=O)c2ccc(C)cc2)cc1,IIIB,RT activity,-,10 µg/mL,57.5%
O=CCNC(=O)[C@@H]1CCCN1,IIIB,syncytia,-,25 µg/mL,99%
O[C@H]1OC[C@H](Cc2ccc3c(c2)OCO3)[C@H]1Cc1ccc2c(c1)OCO2,IIIB,p24,-,12.7 µM,91%
Nc1nc(=O)n([C@@H]2C[C@H](O)[C@@H](CO)O2)cc1-c1ccoc1,IIIB,RT activity,-,10 µg/mL,20%
O=C(O)P(=O)(O)O,IIIB,p24 / antigen,2 d,150 µM,90%
CC[C@@]1(O)C(=O)OCc2c1cc1n(c2=O)Cc2cc3ccccc3nc2-1,IIIB,RT activity,-,0.1 µM,98%
Cn1cccc1-c1cn([C@@H]2C[C@H](O)[C@@H](CO)O2)c(=O)nc1N,IIIB,RT activity,-,10 µg/mL,3%
C[C@@H](C=O)NC(=O)[C@@H]1CCCN1C(=O)CN,IIIB,syncytia,-,25 µg/mL,15%

For reference, 2 entries again:

smiles,strain or isolate,read by,setting,tested at,value
NCC(=O)N1CCC[C@H]1C=O,IIIB,syncytia,-,250 µg/mL,75%
O=C(O)P(=O)(O)O,IIIB,p24 / antigen,2 d,150 µM,90%

Rows are shuffled and stem from different studies. An empty or dashed field is not shown.